Anti-infective test results gathered from many reports (values: NIAID ChemDB through PubChem).

Shared fields: tests in culture; agent: HIV-1; cells: PBMC; read-out: EC50

Conditions beyond the fields shown may differ between rows.

smiles	strain	mutations	read by	conditions	value
Nc1nc2cc3[nH]c4ccccc4c(=O)c3cc2[nH]1	LAV				>100 µM
Cc1cc2c(C(C)C)c(O)c(O)c(/C=N/O)c2c(O)c1-c1c(C)cc2c(C(C)C)c(O)c(O)c(/C=N/O)c2c1O	LAV				0.41 µM
Cc1ccc(-c2ccc3c(c2)C=C(C(=O)Nc2ccc(C[N+](C)(C)C4CCOCC4)cc2)CCC3)cc1	BAL R5		p24 / ELISA / antigen		0.1 µM
Cn1cnc2c(NCc3ccccc3)nc(NCCO)nc21	THA/92/00 NSI CLADE E		p24		>10 µM
Cc1nc2cc(Nc3ccccc3C(=O)O)ccc2s1	LAV				>26.04 µM
CC1CN(C(=O)C(Cc2c[nH]c3c(C(C)(C)C)cccc23)NC(=O)c2ccc([N+](=O)[O-])cc2)CCN1C(=O)C1CC1	BAL R5		p24		<10 µM
Cc1c(O)cccc1C(=O)N[C@@H](CSc1ccccc1)[C@H](O)CN1C[C@H]2CCCC[C@H]2C[C@H]1C(=O)NC(C)(C)C	14a-Pre		p24		0.0491 µM
Cc1ccnc2c1NC(=O)c1cccnc1N2C1CC1	CLADE A		cytopathic effect / XTT	clinical isolate	0.06 µM
CC(=O)Oc1c(OC(C)=O)c(C#N)c2c(OC(C)=O)c(-c3c(C)cc4c(C(C)C)c(OC(C)=O)c(OC(C)=O)c(C#N)c4c3OC(C)=O)c(C)cc2c1C(C)C	LAV				5 µM
CO[C@H]1O[C@@H](n2ccc(=O)[nH]c2=O)C[C@@H]1N=[N+]=[N-]					0.32 µM
OCCc1ccc(O)c(O)c1	NL4-3		p24 / ELISA		54.11 µM
COC(=O)[C@H](C)NP(=O)(OC[C@H]1C/C1=C/n1cnc2c(N)nc(N)nc21)Oc1ccccc1	ERS104pre		p24		0.21 µM
CCn1cc(C(=O)O)c(=O)c2cc(F)c(N3CCN(c4ccccc4OC)CC3)c(OC(F)F)c21	IIIB		p24		0.32 µM
COc1c(OC)c2c3c(c(-c4c(C)cc5c(C(C)C)c(OC)c(OC)c6c5c4OC6=O)c(C)cc3c1C(C)C)OC2=O	LAV				>100 µM
Cc1cn([C@H]2C[C@H](N=[N+]=[N-])[C@@H](CO)O2)c(=O)[nH]c1=O	LAI				0.004 µM
Nc1ncnc2c1ncn2CCOCP(=O)(O)O	HXB2D (RT-K65R)	RT-K65R	p24		12.5 µM
CCCN(C(=O)OCc1ccc([N+](=O)[O-])cc1)C1CCN(CC[C@H](CN(C)S(=O)(=O)c2ccccc2)c2ccccc2)CC1	YU-2 (M-tropic)		p24		<0.1 µM
Cc1cn([C@H]2C=C[C@@H](COC(=O)CCNC(=O)C(=O)/C=C(\O)c3cc(OCc4ccccc4)cc(OCc4ccccc4)c3)O2)c(=O)[nH]c1=O	BaL		RT activity		0.93 µM
C#CC1(CO)OC(n2cnc3c(N)nc(F)nc32)C2C=CC21	NL4-3		p24 / antigen		0.014 µM
O=c1[nH]cnc2c1ncn2[C@H]1CC[C@@H](CO)O1	HXB2D		p24		7.3 µM
c1cc(CN2CCCNCCNCCCNCC2)ccc1CN1CCCNCCNCCCNCC1	98.6 (subtype B)		p24 / ELISA		0.008 µg/mL
Nc1nc2c(ncn2[C@H]2OC[C@@](F)(CCP(=O)(O)O)[C@H]2F)c(=O)[nH]1	LAI		MTT		43 µM
Nc1ccn([C@@H]2CO[C@H](CO)S2)c(=O)n1					0.21 µM
CC(C)CN(C[C@@H](O)[C@H](Cc1ccccc1)NC(=O)O[C@H]1CCOC1)S(=O)(=O)c1ccc(N)cc1	Clinical isolates		p24		0.08 µM
O=C(O)[C@H]1O[C@@H](Oc2cc3oc(-c4ccccc4)cc(=O)c3c(O)c2O)[C@H](O)[C@@H](O)[C@@H]1O			p24		32 µM
COc1ccc(S(=O)(=O)N(CC(C)C)C[C@@H](O)[C@H](Cc2ccc(OC)c(Cl)c2)NC(=O)O[C@H]2CO[C@H]3OCC[C@H]32)cc1	NL4-3	L10F V32I M46I I54M A71V I84V	p24 / luminescence		0.0021 µM
O=C(NCc1ccc(F)cc1)c1nc(N2CCCCS2(=O)=O)c2cccnc2c1O	BaL		p24		<0.022 µM
C=CCN(C(=O)OCc1ccc([N+](=O)[O-])cc1)C1CCN(CC[C@](C)(CN(C)S(=O)(=O)c2ccccc2)c2ccccc2)CC1	YU-2 (M-tropic)		p24		<0.008 µM
C[C@H](Cn1cnc2c(N)ncnc21)OCP(=O)(O)O	NL4-3		p24 / antigen		3.3 µM
CCCN(C(=O)OCc1cccc(C)c1)C1CCN(CCC(CN(C)S(=O)(=O)c2ccccc2)c2ccccc2)CC1	YU-2 (M-tropic)		p24		<1 µM
CC(C)(C)C(=O)c1sc(C(=O)NCc2ccccc2)c(O)c1O	TZ97002 X4 CLADE A		p24		0.4 µM
Cc1cn([C@H]2C[C@H](N=[N+]=[N-])[C@@H](CO)O2)c(=O)n(N)c1=O	BRU		p24 / RT activity		<2.5 µM
COc1c(C)c2c(c(O)c1C/C=C(\C)CCC(=O)O)C(=O)OC2	NL4-3		p24		~10 µM
Cc1cn([C@H]2C[C@H](N=[N+]=[N-])[C@@H](CO)O2)c(=O)[nH]c1=O	BaL		RT activity		0.008 µM
C1CNCCNCCCN(CCCN2CCCNCCNCCCNCC2)CCNC1	BaL		p24		>6.25 µM
C=CCN(C(=O)OCc1ccccc1)C1CCN(CC[C@](CO)(CN(C)S(=O)(=O)c2ccccc2)c2ccccc2)CC1	YU-2 (M-tropic)		p24		<0.055 µM
Nc1nc(=O)n([C@@H]2CS[C@H](CO)O2)cc1F			single cycle / fluorescence		0.004244 µM
Nc1ccn([C@H]2CO[C@@H](CO)O2)c(=O)n1					0.016 µM
CN(C[C@@H](CCN1CCC2(CC1)CS(=O)c1ccccc12)c1cccc(Cl)c1)S(=O)(=O)c1ccccc1	YU-2 (M-tropic)		p24		<12.5 µM
CC(C)=CCN1Cc2cccc3[nH]c(=S)n(c23)C[C@@H]1C	HXB2		p24		0.05 µM
Cc1ccnc2c1NC(=O)c1cccnc1N2C1CC1	BaL	RT-P236L	p24		0.2 µM
Nc1nc2c(ncn2[C@H]2CO[C@@H](CO)O2)c(=O)[nH]1	Wild-type isolates				0.03–0.29 µM
CCNc1cccnc1N1CCN(C(=O)c2cc3cc(OC)ccc3[nH]2)CC1	BaL		p24		~0.9 µM
CCCC(=O)c1c(O)c(CC2(C)C(=O)C(C(=O)C(C)CC)=C(O)C(C)=C2O)c(O)c(C)c1OC	LAV				3.92 µM
CC[C@H](C)[C@@H](C(=O)O)n1sc2ccccc2c1=O	LAV-Bru		p24 / RT activity		8.5 µM
O=c1[nH]cnc2c1ncn2[C@H]1CC[C@@H](CO)O1	9632 CLADE B CLADE B		p24		2.25 µM
Nc1ncnc2c1ncn2[C@H]1OC[C@@](F)(C=CP(=O)(O)O)[C@H]1F	LAI		MTT		31 µM
Nc1nc(=O)n([C@@H]2CS[C@H](CO)O2)cc1F	LAI		RT activity		0.008 µM
Cc1cn([C@H]2C[C@H](N=[N+]=[N-])[C@@H](CO)O2)c(=O)[nH]c1=O	KM018		p24 / ELISA		0.253 µM
Cc1ccnc2c1NC(=O)c1cccnc1N2C1CC1	RT-M184V	RT-E89G	p24		0.2 µM
c1cc(CN2CCCNCCNCCCNCC2)ccc1CN1CCCNCCNCCCNCC1	CM7 CLADE C R5		p24		>0.5 µM
C#C[C@@]1(CO)CC[C@H](n2cnc3c(N)nc(F)nc32)O1	NL4-3		p24 / antigen		0.57 µM
CC(C)(C)OC(=O)N[C@@H](Cc1ccccc1)[C@H](O)CNC[C@@H](O)[C@H](Cc1ccccc1)NC(=O)OC(C)(C)C	IIIB		p24		0.025 µM
Cc1cn([C@H]2C=C[C@@H](COC(=O)CNC(=O)C(=O)/C=C(\O)c3cccn3Cc3ccc(F)cc3)O2)c(=O)[nH]c1=O	BaL		RT activity		0.32 µM
Nc1nc(N)c2ncn([C@H]3CO[C@@H](CO)O3)c2n1	LAI				2.1 µM
NCCCCN(Cc1nc2ccccc2[nH]1)C1CCCc2cccnc21	NL4-3				0.01 µM
Nc1ncnc2c1ncn2[C@H]1OC[C@@](F)(CCP(=O)(O)O)[C@H]1F	LAI		MTT		12 µM

ECn is the concentration giving n% inhibition of infection, replication or growth. An empty or dashed field is not shown. a–b is a range or a potency band.